{"source": "PubChem BioAssay AID624099 – ICCB-Longwood – 2012", "test": "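Human genes that papillomavirus E2 requires to repress the HPV18 LCR promoter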 (primary screen)", "system": "human C33A cervical carcinoma cells (HPV-negative) stably expressing BPV1 E2 and an HPV18 LCR luciferase reporter", "reagent": "siRNA pool against human genes, 40 nM", "timing": "72 h", "measurement": "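Per-well luciferase luminescence, z-scored on each plate against the plate mean and SD with control wells left out, then averaged across three replicate plates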", "direction": "mean z-score and z-score: higher = stronger reporter signal, weaker E2 silencing", "rule for the call": "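Hit if mean z-score reaches 2 and two or more of three replicate z-scores also reach 2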", "note": "In all, the deposit lists about 21,000 reagents; below is a part drawn at random. Over the whole deposit, 497 (2.4%) are marked active. 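Higher z means weaker E2 silencing; only reporter increases were scored, and knock-downs that hurt cell survival may mask genuine repressor factors.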 A number with no mark means an inactive call."}
{"Target gene":"GSKIP (GSK3B interacting protein)","mean z-score":-0.76,"z-score, replicate A":-0.39,"z-score, replicate B":-0.87,"z-score, replicate C":-1.01}
{"Target gene":"PARP1 (poly(ADP-ribose) polymerase 1)","mean z-score":-0.08,"z-score, replicate A":-0.28,"z-score, replicate B":0.07,"z-score, replicate C":-0.04}
{"Target gene":"LINC01483 (long independently transcribed non-coding RNA 1483)","mean z-score":0.74,"z-score, replicate A":0.49,"z-score, replicate B":0.67,"z-score, replicate C":1.05}
{"Target gene":"LOC138729 (retired record)","mean z-score":-0.46,"z-score, replicate A":-0.22,"z-score, replicate B":-0.72,"z-score, replicate C":-0.44}
{"Target gene":"SPANXD (SPANX family member D)","mean z-score":0.01,"z-score, replicate A":-0.33,"z-score, replicate B":0.35,"z-score, replicate C":-0.2}
{"Target gene":"IMMP1L (inner mitochondrial membrane peptidase subunit 1)","mean z-score":1.7,"z-score, replicate A":2.12,"z-score, replicate B":1.29,"z-score, replicate C":1.69}
{"Target gene":"FXYD5 (FXYD domain containing ion transport regulator 5)","mean z-score":-0.19,"z-score, replicate A":0.22,"z-score, replicate B":-0.01,"z-score, replicate C":-0.78}
{"Target gene":"ARHGEF19 (Rho guanine nucleotide exchange factor 19)","mean z-score":0.35,"z-score, replicate A":0.51,"z-score, replicate B":0.21,"z-score, replicate C":0.34}
{"Target gene":"SFR1 (SWI5 dependent homologous recombination repair protein 1)","mean z-score":0.34,"z-score, replicate A":0.3,"z-score, replicate B":0.39,"z-score, replicate C":0.31}
{"Target gene":"LOC387905 (retired record)","mean z-score":-0.12,"z-score, replicate A":-0.42,"z-score, replicate B":-0.25,"z-score, replicate C":0.3}
{"Target gene":"PANK3 (pantothenate kinase 3)","mean z-score":-0.18,"z-score, replicate A":-0.06,"z-score, replicate B":-0.41,"z-score, replicate C":-0.07}
{"Target gene":"CALY (calcyon neuron specific vesicular protein)","mean z-score":0.95,"z-score, replicate A":0.63,"z-score, replicate B":1.07,"z-score, replicate C":1.13}
{"Target gene":"ZNF141 (zinc finger protein 141)","mean z-score":0.43,"z-score, replicate A":0.65,"z-score, replicate B":0.41,"z-score, replicate C":0.22}
{"Target gene":"DUSP21 (dual specificity phosphatase 21)","mean z-score":"2.04 (active)","z-score, replicate A":1.96,"z-score, replicate B":2.03,"z-score, replicate C":2.14}
{"Target gene":"PRKAR1A","mean z-score":-0.96,"z-score, replicate A":-0.92,"z-score, replicate B":-1.1,"z-score, replicate C":-0.86}
{"Target gene":"AGRP (agouti related neuropeptide)","mean z-score":-0.08,"z-score, replicate A":0.08,"z-score, replicate B":-0.01,"z-score, replicate C":-0.31}
{"Target gene":"EDA2R (ectodysplasin A2 receptor)","mean z-score":-0.95,"z-score, replicate A":-1.02,"z-score, replicate B":-1.02,"z-score, replicate C":-0.82}
{"Target gene":"SMYD1 (SET and MYND domain containing 1)","mean z-score":1.31,"z-score, replicate A":1.25,"z-score, replicate B":1.34,"z-score, replicate C":1.36}
{"Target gene":"DCAF4L1 (DDB1 and CUL4 associated factor 4 like 1)","mean z-score":0.33,"z-score, replicate A":0.15,"z-score, replicate B":0.11,"z-score, replicate C":0.74}
{"Target gene":"PIK3R6 (phosphoinositide-3-kinase regulatory subunit 6)","mean z-score":-0.03,"z-score, replicate A":-0.04,"z-score, replicate B":-0.07,"z-score, replicate C":0.02}
{"Target gene":"SAMD5 (sterile alpha motif domain containing 5)","mean z-score":-0.54,"z-score, replicate A":-0.57,"z-score, replicate B":-0.52,"z-score, replicate C":-0.53}
